Results of unrelated studies side by side (data: NIAID ChemDB).

Shared fields: whole-cell or culture tests; species: HIV-1

An empty or dashed field is not shown. Rows are shuffled and stem from different studies. ECn: concentration that inhibits the pathogen or its effect by n%.

| compound | mutations | strain | read by | endpoint | conditions | cell line | value |
|---|---|---|---|---|---|---|---|
| Cc1cc(C#N)cc(C)c1Oc1nc(Nc2ccc(C#N)cc2)nc(N)c1Br | E138Q | LAI |  | EC50 |  | TZM-bl | 0.004 µM |
| CCCCCCCSc1nsc(NC(=O)Nc2ccccc2)n1 |  | IIIB | cytopathic effect | EC50 |  | MT-4 | 8.9 µM |
| Nc1ncnc2c1ncn2[C@@H]1C=C[C@H](CO)O1 |  |  |  | EC50 |  | CEM | 0.54 µM |
| COC(=O)C[C@@H]1C(=O)CC[C@H](C)C(=O)O[C@@H]2[C@@H]3[C@@H](OC(C)=O)[C@@]45O[C@@]3(C)COC(=O)c3cnccc3[C@@H](C)[C@](C)(O)C(=O)O[C@@H]([C@H](OC(C)=O)[C@H](OC(C)=O)[C@@]4(COC1=O)[C@@H]2OC(C)=O)C5(C)O |  | IIIB | p24 | EC50 |  | H9 | <0.1 µg/mL |
| Nc1ccn([C@H]2CC[C@@H](CO)O2)c(=O)n1 |  | IIIB | cytopathic effect / MTT | EC50 |  | MT-4 | 0.16 µg/mL |
| Cc1ccnc2c1NC(=O)c1cccnc1N2C1CC1 |  | IIIB | cytopathic effect | EC50 |  | MT-4 | 0.07 µM |
| CCCCCCCCCC(=O)O[C@@]12[C@H](OCOCc3ccccc3)[C@@H](C)[C@@]3(O)[C@@H](C=C(CO)C[C@]4(O)C(=O)C(C)=C[C@@H]34)[C@@H]1C2(C)C |  | IIIB | cytopathic effect / MTT | EC50 |  | MT-4 | 0.00027 µg/mL |
| CCO/N=C(\c1ccc(Br)cc1)C1CCN(C2(C)CCN(C(=O)c3c(C)cc[n+]([O-])c3C)CC2)CC1 |  |  | p24 / ELISA | EC50 |  | PBMC | >0.16 µM |
| CC(=O)OC[C@@H]1C[C@H](N=[N+]=[N-])C[C@H](n2cc(C)c(=O)[nH]c2=O)O1 |  | IIIB |  | EC50 |  | MT-4 | >333 µM |
| Cc1cn([C@H]2C[C@H](N=[N+]=[N-])[C@@H](CO)O2)c(=O)[nH]c1=O |  | LAI | RT activity | EC50 |  | PBMC | 0.112 µM |
| CCCCCCCCCC(=O)O[C@@]12[C@H](OC(C)=O)[C@@H](C)[C@@]3(O)[C@@H](C=C(CO)C[C@]4(O)C(=O)C(C)=C[C@@H]34)[C@@H]1C2(C)C |  | IIIB | cytopathic effect / MTT | EC50 |  | MT-4 + mouse plasma + MT-4 | 0.0707 µg/mL |
| CO[Si](OC[C@H]1O[C@@H](n2cc(C)c(=O)n(C)c2=O)[C@H](O[Si](C)(C)C(C)(C)C)C12OS(=O)(=O)C=C2N)(c1ccccc1)C(C)(C)C |  | IIIB | syncytia | EC50 |  | CEM | 3.1 µM |
| Nc1ccn([C@H]2C=C[C@@H](CO)O2)c(=O)n1 |  | LAV |  | EC50 |  | PBMC | 0.005 µM |
| Nc1nc2c(ncn2[C@@H]2CC[C@H](CO)O2)c(=O)[nH]1 |  |  |  | EC50 |  | CEM | >100 µM |
| O=C(O)P(=O)(O)O | RT-L100I | R82150 (RT-L100I) | cytopathic effect | EC50 |  | MT-2 | 22.7 µM |
| Cc1cn([C@H]2C[C@H](N=[N+]=[N-])[C@@H](CO)O2)c(=O)[nH]c1=O |  | IIIB |  | EC50 |  |  | 0.0001 µg/mL |
| Cc1cn([C@@H]2O[C@H](CO[Si](C)(C)C(C)(C)C)C3(OS(=O)(=O)C=C3N)[C@H]2O[Si](C)(C)C(C)(C)C(C)C)c(=O)n(C)c1=O |  | IIIB | syncytia | EC50 |  | MT-4 | 0.1 µM |
| CCCCCC[C@@H]1[C@H](O)[C@@H](O)[C@@H](Cc2ccccc2)N(Cc2cccc(C(=O)Nc3nc4ccccc4[nH]3)c2)C(=O)N1Cc1cccc(C(=O)Nc2nc3ccccc3[nH]2)c1 | PR-I84V | RF |  | EC50 | 3 d | MT-2 | <0.024 µM |
| Cc1cn([C@@H]2O[C@H](CO[Si](C(C)(C)C)(C(C)(C)C)C(C)(C)C)C3(OS(=O)(=O)C=C3N)[C@H]2O[Si](C)(C)C(C)(C)C)c(=O)n(C)c1=O |  | IIIB | syncytia | EC50 |  | MT-4 | >30 µM |
| CC#Cc1cn([C@@H]2O[C@H](COP(=O)(O)Oc3ccc(Cl)cc3)[C@@H](O)[C@@H]2O)c(=O)[nH]c1=O |  | HXB2 | plaque count | EC50 |  | HeLa | >5 µM |
| CCOP(=O)(CO[C@H]1C[C@@H](n2cnc3c(N)ncnc32)C(F)(F)C1)OCC |  | LAI | RT activity | EC90 |  | PBMC | 90 µM |
| COc1nc(=O)[nH]c2c1C(c1ccc(Br)cc1)c1c(OC)nc(=O)[nH]c1O2 |  | IIIB | cytopathic effect | EC50 |  | MT-4 | 273 µM |
| CC(C)[C@H](NC(=O)[C@H](NCc1ccccc1)[C@H](O)[C@H](Cc1ccccc1)NC(=O)[C@H](CCC(=O)O)NC(=O)OCc1ccccc1)C(=O)NCc1ccccc1 |  | IIIB | cytopathic effect / MTT | EC50 |  | MT-4 | 2 µM |
| CC(=O)NC1=CS(=O)(=O)OC12[C@@H](COCc1ccccc1)O[C@@H](n1cc(C)c(=O)[nH]c1=O)[C@@H]2OC(C)=O |  | IIIB | syncytia | EC50 |  | CEM | >160 µM |
| CC(C)(C)NC(=O)[C@@H]1C[C@@H]2CCCC[C@@H]2CN1C[C@@H](O)[C@H](Cc1ccccc1)NC(=O)[C@@H](NC(=O)c1ccc2ccccc2n1)[C@H]1CCSC1 |  | IIIB | p24 | EC95 |  | MT-4 | 0.05 µM |
| CC(C)(C)NC(=O)[C@@H]1CN(Cc2cccnc2)CCN1C[C@@H](O)C[C@@H](Cc1ccccc1)C(=O)N[C@H]1c2ccccc2C[C@H]1O |  | NL4-3 B | cytopathic effect / MTT | EC50 |  | MT-4 | 0.0073 µM |
| Cc1cn([C@H]2C[C@H](N=[N+]=[N-])[C@@H](CO)O2)c(=O)[nH]c1=O |  | RF | cytopathic effect / XTT | EC50 |  | CEM + CEM-SS | 0.0003 µM |
| CC(C)Nc1cccnc1N1CCN(C(=O)c2cc3cc(NS(C)(=O)=O)ccc3[nH]2)CC1 |  | JR-CSF | p24 | EC90 |  | PBMC | 0.04 µM |
| C[C@H]1CCCC[C@@H]1Oc1cc(CCc2ccccc2)[nH]c(=O)c1I |  | SF33 | ELISA | EC50 |  | TZM-bl | 0.003 µM |
| CC(C)C[C@@H]1[C@H](O)[C@@H](O)[C@@H](Cc2ccccc2)N(Cc2cccc(C(=O)Nc3nc4ccccc4[nH]3)c2)C(=O)N1Cc1cccc(C(=O)Nc2nc3ccccc3[nH]2)c1 |  | RF |  | EC50 | 3 d | MT-2 | <0.01 µM |
| CCOP(=O)(CO[C@H]1C[C@@H](n2cnc3c(N)nc(F)nc32)C(F)(F)C1)OCC |  | LAI | RT activity | EC50 |  | PBMC | 81 µM |
| CC#Cc1cn([C@@H]2O[C@H](COP(=O)(O)OCC(F)(F)F)[C@@H](O)[C@@H]2O)c(=O)[nH]c1=O |  | HXB2 | plaque count | EC50 |  | HeLa | >50 µM |
| Cc1cn([C@H]2C=C[C@@H](CO)O2)c(=O)[nH]c1=O |  |  | p24 / antigen | EC50 |  | MT-4 | 0.002 µg/mL |
| CC(=O)OC[C@]12[C@H](OC(C)=O)[C@H](OC(C)=O)[C@@H]3[C@@H](OC(C)=O)[C@@]14O[C@@]3(C)COC(=O)c1cccnc1CCC(C)C(=O)O[C@@H]([C@H](OC(=O)c1ccoc1)[C@@H]2OC(C)=O)C4(C)O |  | IIIB | p24 | EC50 |  | H9 | >100 µg/mL |
| CC(C)[C@H](NC(=O)CNC(=O)OCc1ccccc1)C(=O)N[C@@H](Cc1ccccc1)C(=O)C(F)(F)CCc1ccccc1 |  | IIIB |  | EC50 |  | MT-4 | 1.9 µM |
| CC(C)=CCN1Cc2cc(Cl)cc3[nH]c(=S)n(c23)C[C@@H]1C | RT-K70R |  |  | EC95 |  | MT-4 | 1.5 µM |
| Nc1ccn([C@H]2CC[C@@H](CO)O2)c(=O)n1 |  | IIIB | cytopathic effect | EC50 |  | MT-2 | 0.14 µM |
| Nc1nc2c(ncn2CC(CO)CCO)c(=O)[nH]1 |  | IIIB | ELISA | EC50 |  | H9 | >50 µM |
| CC(C)C[C@@H]1[C@H](O)[C@@H](O)[C@@H](CC(C)C)N(Cc2cccc(C(=O)Nc3nc4ccccc4[nH]3)c2)C(=O)N1Cc1cccc(C(=O)Nc2nc3ccccc3[nH]2)c1 | PR-I84V V82F | RF |  | EC50 | 3 d | MT-2 | <0.012 µM |
| CN(C)c1ncc(C(=O)N[C@H](C(=O)N[C@@H](Cc2ccccc2)[C@H](O)CN2C[C@H]3CCCC[C@H]3C[C@H]2C(=O)NC(C)(C)C)[C@H]2CCOC2)nc1Cl |  | IIIB | p24 | EC50 |  | MT-4 | <0.012 µM |
| COC(=O)[C@@H](C)NP(=O)(OC[C@@H]1C=C[C@H](n2cc(C)c(=O)[nH]c2=O)O1)Oc1ccccc1 |  |  |  | EC50 |  | CEM | 3 µM |
| CC(=O)OC[C@]12[C@H](OC(C)=O)[C@H](OC(C)=O)[C@@H]3[C@@H](OC(C)=O)[C@@]14O[C@@]3(C)COC(=O)c1cccnc1CCC(C)(O)C(=O)O[C@@H]([C@H](OC(=O)c1ccoc1)[C@@H]2OC(C)=O)C4(C)O |  | IIIB | p24 | EC50 |  | H9 | <0.1 µg/mL |
| CC1=C[C@H]2[C@@]3(O)[C@H](C)[C@@H](O)[C@]4(O)[C@H]([C@@H]3C=C(CO)C[C@@]2(O)C1=O)C4(C)C |  | IIIB | cytopathic effect / MTT | EC50 |  | MT-4 | >10 µg/mL |
| CN1CCN(c2ncc(C(=O)N[C@H](C(=O)N[C@@H](Cc3ccccc3)[C@H](O)CN3C[C@H]4CCCC[C@H]4C[C@H]3C(=O)NC(C)(C)C)[C@H]3CCOC3)nc2Cl)CC1 |  | IIIB | p24 | EC50 |  | MT-4 | <0.012 µM |
| Nc1ccc(C[C@@H]2[C@H](O)[C@@H](O)[C@@H](Cc3ccc(N)cc3)N(Cc3cccc(C(=O)Nc4nc5ccccc5[nH]4)c3)C(=O)N2Cc2cccc(C(=O)Nc3nc4ccccc4[nH]3)c2)cc1 | PR-I84V | RF |  | EC50 | 3 d | MT-2 | <0.023 µM |
| CC(C)=CCN1Cc2cccc3[nH]c(=S)n(c23)C[C@@H]1C | RT-L100I | R82150 (RT-L100I) | cytopathic effect | EC50 |  | MT-2 | >30 µM |
| O=c1[nH]cnc2c1ncn2[C@@H]1C=C[C@H](CO)O1 |  |  |  | EC50 |  | PBMC | 5.5 µM |
| Cc1cc(S(=O)(=O)NC2=NCCCN2)c(S)cc1Cl |  |  | cytopathic effect / MTT | EC50 |  | CEM | 19.4 µM |
| CC(C)[C@H](NC(=O)c1cc(=O)c2ccccc2o1)C(=O)N[C@@H](Cc1ccccc1)[C@H](O)CN1C[C@H]2CCCC[C@H]2C[C@H]1C(=O)NC(C)(C)C |  | IIIB | p24 | EC50 |  | MT-4 | <0.025 µM |
| COc1ccc2c3ccn(C)c(C)c-3nc2c1 |  | IIIB | p24 | EC50 |  | H9 | 4.5 µM |
| Clc1nc(Cl)c2c(n1)Oc1nc(Cl)nc(Cl)c1C2c1ccccc1 |  | IIIB | cytopathic effect | EC50 |  | MT-4 | >17.5 µM |
| CCCCCC[C@@H]1[C@H](O)[C@@H](O)[C@@H](CCCCCC)N(Cc2cccc(C(=O)Nc3nc4ccccc4[nH]3)c2)C(=O)N1Cc1cccc(C(=O)Nc2nc3ccccc3[nH]2)c1 |  | RF |  | EC90 | 3 d | MT-2 | 0.086 µM |
| CC#Cc1cn([C@@H]2O[C@H](COP(=O)(O)Oc3c(C)cccc3C)[C@@H](O)[C@@H]2O)c(=O)[nH]c1=O |  | HXB2 | plaque count | EC50 |  | HeLa | >5 µM |
| Cc1cn([C@@H]2O[C@H](CO[Si](C)(C)C(C)(C)C(C)C)C3(OS(=O)(=O)C=C3N)[C@H]2O[Si](C)(C)C(C)(C)C)c(=O)n(C)c1=O |  | IIIB | syncytia | EC50 |  | MT-4 | 2 µM |
| Cc1cn([C@H]2C[C@H](N=[N+]=[N-])[C@@H](CO)O2)c(=O)[nH]c1=O |  | IIIB | p24 | EC50 |  | C8166 | 0.016 µM |
| Nc1nc(=O)n([C@@H]2CS[C@H](CO)O2)cc1F | E138Q | LAI |  | EC50 |  | TZM-bl | 0.4 µM |